Anti-infective test results gathered from many reports (values: NIAID ChemDB through PubChem).

Common to all: growth or infection tests

MIC50, MIC90 and the like: level of inhibition, or share of isolates inhibited. Lines come from different laboratories, so protocols vary. Inhibition is in % at the dose shown (toxicity tests: loss of growth or viability). a–b is a range or a potency band. Blank or dashed fields: not listed here. Zone: diameter of growth inhibition.

compound,method,dose,conditions,strain,read-out,agent,result
CC(=O)c1ccc(B(O)O)cc1,turbidity,,,,MBC,Mycobacterium luteum,31.2 µg/mL
Cc1c(N2CC[C@@H](CN)C2)c(F)cc2c(=O)n(N)c(=O)n(C3CC3)c12,,,,A91V mutant,MIC99,Mycobacterium smegmatis,0.625 µg/mL
CC(C)N=c1cc2n(-c3ccc(Cl)cc3)c3ccccc3nc-2cc1Nc1ccc(Cl)cc1,broth dilution,,,Clinical isolate,MIC90,Mycobacterium bolletii,1 µg/mL
CO[C@H]1/C=C/O[C@@]2(C)Oc3c(C)c(O)c4c(=O)c(c5oc6cc(N7CCN(CC(C)C)CC7)cc(=O)c6nc5c4c3=C2O)NC(=O)/C(C)=C\C=C\[C@H](C)[C@H](O)[C@@H](C)[C@@H](O)[C@@H](C)[C@H](OC(C)=O)[C@@H]1C,,,,ATCC 35840,MBC,Mycobacterium ulcerans,0.025 µg/mL
CC[C@H]1OC(=O)[C@H](C)[C@@H](OC(=O)CCCCCc2ccccc2)[C@H](C)[C@@H](O[C@@H]2O[C@H](C)C[C@H](N(C)C)[C@H]2O)C(C)(O)C[C@@H](C)/C(=N\OCCCOc2ccccc2)[C@H](C)[C@@H](O)[C@]1(C)O,,,,20096 (clarithromycin-resistant),MIC,Mycobacterium avium complex,25 µg/mL
CCCCCCCCCCCCCCCCCCCCCCNC(=O)NC(CCC(=O)O)(CCC(=O)O)CCC(=O)O,,,,AAy-P-1,MIC,Mycobacterium abscessus,72 µg/mL
COc1ccc2c(NCCc3ccc(OC(F)(F)F)cc3)ncnc2c1,luminescence,,,,MIC50,Mycobacterium bovis BCG,>20 µM
CCCCOc1ccc(N2CCC(c3ccc(CNC(=O)c4c(CC)nc5ccc(Cl)cn45)c(F)c3)CC2)cc1.Cl,fluorescence,0.016 µM,,,inhibition,Mycobacterium avium,85%
CCc1nc2ccc(Cl)cn2c1C(=O)NCc1ccc(-c2ccccc2)cc1,fluorescence,,,,MIC50,Mycobacterium ulcerans,0.001–0.01 µg/mL
O=C(c1ccc(CNc2ncnc3ccccc23)cc1)N1CCOCC1,luminescence,,,,MIC50,Mycobacterium bovis BCG,>50 µM
OB1OC(N2CCOCC2)c2ccccc21,turbidity,,,,MBC,Mycobacterium luteum,125 µg/mL
CC(C)=CCC/C(C)=C/CNc1ncnc2cc(F)ccc12,luminescence,,,,MIC50,Mycobacterium bovis BCG,>20 µM
CC[C@H]1OC(=O)[C@H](C)[C@@H](OC2C[C@@](C)(OC)[C@@H](O)[C@H](C)O2)[C@H](C)[C@@H](O[C@@H]2O[C@H](C)C[C@H](N(C)C)[C@H]2O)C(C)(O)C[C@@H](C)/C(=N\OCCCc2ccccc2)[C@H](C)[C@@H](O)[C@]1(C)O,,,,20039 (clarithromycin-susceptible),MIC,Mycobacterium avium complex,1.56 µg/mL
FC(F)(F)c1ccc(Oc2ccc(Nc3ncnc4[nH]ncc34)cc2)cc1,luminescence,,,,MIC50,Mycobacterium bovis BCG,>10 µM
Fc1ccc(-n2c(=S)oc3ccc(F)cc3c2=S)cc1,,,14 d,My 235/80,MIC,Mycobacterium kansasii,8 µM
CCC1CN(c2cc3c(cc2F)c(=O)c(C(=O)O)cn3C2CC2)CCN1,,,,G89C mutant,MIC99,Mycobacterium smegmatis,4 µg/mL
CCCCCCCCC(CCCCCCCC)NC(=O)NC(CCC(=O)O)(CCC(=O)O)CCC(=O)O,,,,ATCC 927,MIC,Mycobacterium marinum,27 µg/mL
O=C(NCCc1cc(F)cc2c1OCOC2)c1c(Cl)nc2ccccn12,fluorescence,,,,MIC50,Mycobacterium ulcerans,1–10 µg/mL
OB1OCc2cc(F)ccc21,turbidity,,,,MBC,Mycobacterium luteum,3.9 µg/mL
FC(F)(F)c1ccc(CNc2ncnc3ccsc23)cc1,luminescence,,,,MIC50,Mycobacterium bovis BCG,>50 µM
CCCCCCCCCCCC(CCCCCCCCCCC)NC(=O)NC(CCC(=O)O)(CCC(=O)O)CCC(=O)O,,,,EO-P-1,MIC,Mycobacterium chelonae,106 µg/mL
OB(O)c1ccccc1,turbidity,,,,MBC,Mycobacterium luteum,500 µg/mL
CO[C@H]1/C=C/O[C@@]2(C)Oc3c(C)c(O)c4c(O)c(c(/C=N/N5CCN(C6CCCC6)CC5)c(O)c4c3C2=O)NC(=O)/C(C)=C\C=C\[C@H](C)[C@H](O)[C@@H](C)[C@@H](O)[C@@H](C)[C@H](OC(C)=O)[C@@H]1C,,,,998,MIC,Mycobacterium avium intracellulare,0.062 µg/mL
CC[C@H]1OC(=O)[C@H](C)[C@@H](O[C@H]2C[C@@](C)(OC)[C@@H](OC(C)=O)[C@H](C)O2)[C@H](C)[C@@H](O[C@@H]2O[C@H](C)C[C@H](N(C)C)[C@H]2OC(=O)NNCc2ccc([N+](=O)[O-])cc2)C(C)(O)C[C@@H](C)/C(=N\OCCCC2CCCCC2)[C@H](C)[C@@H](O)[C@]1(C)O,,,,20092 (clarithromycin-resistant),MIC,Mycobacterium avium complex,3.13 µg/mL
O=c1oc2ccc(Cl)cc2c(=S)n1-c1ccc(F)cc1,,,21 d,6509/96,MIC,Mycobacterium kansasii,16 µM
Cc1ccn2nc(C)c(C(=O)NCc3ccc(N4CCN(c5ccc(OC(F)(F)F)cc5)[C@@H](C)C4)c(F)c3)c2c1.Cl,fluorescence,0.025 µM,,,inhibition,Mycobacterium avium,85%
Fc1ccc2c(Nc3ccc(N4CCN(c5ccc(C(F)(F)F)cc5)CC4)c(F)c3)ncnc2c1,luminescence,,,,MIC50,Mycobacterium bovis BCG,>50 µM
CCc1nc2cc(F)ccn2c1C(=O)NCc1ccc(N2CCN(c3ccc(C(F)(F)F)cc3)[C@@H](C)C2)c(F)c1.Cl,fluorescence,0.0014 µM,,,inhibition,Mycobacterium avium,85%
COc1c(N2CCC(N)C2)c(F)cc2c(=O)c(C(=O)O)cn(C3CC3)c12,,,,WT,MIC99,Mycobacterium smegmatis,0.125 µg/mL
CCc1nc2ccc(Cl)cn2c1C(=O)NCc1ccc(N2CCC(c3ccc(OC(F)(F)F)cc3)CC2)c(F)c1.Cl,fluorescence,0.0072 µM,,,inhibition,Mycobacterium avium,85%
FC(F)(F)c1ccc(N2CCC3(CCN(c4ccc(Nc5ncnc6ccccc56)cc4)CC3)CC2)cc1,luminescence,,,,MIC50,Mycobacterium bovis BCG,>50 µM
Cc1cn2c(C(=O)NCc3ccc(N4CCN(c5ccc(OC(F)(F)F)cc5)[C@@H](C)C4)c(Cl)c3)c(C)nc2s1.Cl,fluorescence,0.061 µM,,,inhibition,Mycobacterium avium,85%
Fc1cccc2c(Nc3ccc(Oc4ccc(C(F)(F)F)cc4)cc3)ncnc12,luminescence,,,,MIC50,Mycobacterium bovis BCG,>50 µM
CC[C@H]1OC(=O)[C@H](C)[C@@H](OC2C[C@@](C)(OC)[C@@H](OC(=O)CC3CCCCC3)[C@H](C)O2)[C@H](C)[C@@H](O[C@@H]2O[C@H](C)C[C@H](N(C)C)[C@H]2O)C(C)(O)C[C@@H](C)/C(=N\OCCCOc2ccccc2)[C@H](C)[C@@H](O)[C@]1(C)O,,,,20039 (clarithromycin-susceptible),MIC,Mycobacterium avium complex,1.56 µg/mL
CCCCCCCCCCCCCCCCCCCCCCCOC(=O)NC(CCC(=O)O)(CCC(=O)O)CCC(=O)O,,,,EO-P-1,MIC,Mycobacterium chelonae,72 µg/mL
C[C@@H]1CN(c2c(F)c(N)c3c(=O)c(C(=O)O)cn(C4CC4)c3c2F)C[C@H](C)N1,broth dilution / visual reading,,,ATCC 25420,MIC,Mycobacterium africanum,0.1 µg/mL
FC(F)(F)Oc1ccc(Nc2ncnc3ccsc23)cc1,luminescence,,,,MIC50,Mycobacterium bovis BCG,>50 µM
COc1ccc(CCn2c(C)nn(Cc3cn(CCCCn4cc(Cn5nc(C)n(CCc6ccc(OC)cc6)c5=O)nn4)nn3)c2=O)cc1,agar diffusion,20 mg/mL,,,zone,Mycobacterium luteus,1.313 mm
COc1ccc2oc(=O)n(-c3cccc(Cl)c3)c(=S)c2c1,,,14 d,6509/96,MIC,Mycobacterium kansasii,16 µM
Cc1nc2ccccn2c1C(=O)NCCN1CCOCC1,fluorescence,,,,MIC50,Mycobacterium ulcerans,>10 µg/mL
FC(F)(F)c1ccc(Oc2ccc(Nc3ncnc4ccccc34)cc2)cn1,luminescence,,,,MIC50,Mycobacterium bovis BCG,>50 µM
Fc1ccc2oc(=S)n(-c3ccc(Br)cc3)c(=S)c2c1,,,21 d,6509/96,MIC,Mycobacterium kansasii,4 µM
CC(C)(C)c1ccc(CCNc2ncnc3ccoc23)cc1,luminescence,,,,MIC50,Mycobacterium bovis BCG,>20 µM
COc1ccc(CCn2c(C)nn(Cc3cn(CCn4cc(Cn5nc(C)n(CCc6ccc(OC)cc6)c5=O)nn4)nn3)c2=O)cc1,agar diffusion,20 mg/mL,,,zone,Mycobacterium luteus,1.387 mm
COc1ccc2oc(=S)n(-c3cccc(Cl)c3)c(=S)c2c1,,,14 d,6509/96,MIC,Mycobacterium kansasii,8 µM
C[C@@H]1CN(c2c(F)c(N)c3c(=O)c(C(=O)O)cn(C4CC4)c3c2F)C[C@H](C)N1,,,,20 strains,MIC50,Mycoplasma hominis,≤0.01 µg/mL
Fc1ccc(Oc2cccc(CNc3ncnc4ccccc34)c2)cc1,luminescence,,,,MIC50,Mycobacterium bovis BCG,>50 µM
S=c1oc2ccc(Br)cc2c(=S)n1-c1ccccc1,,,14 d,6509/96,MIC,Mycobacterium kansasii,2 µM
COc1c(N2CC[C@@H](CN)C2)c(F)cc2c(=O)n(N)c(=O)n(C3CC3)c12,,,,WT,MIC99,Mycobacterium smegmatis,5 µg/mL
CCNC(=O)c1c(C)nc2ccccn12,fluorescence,,,,MIC50,Mycobacterium ulcerans,>10 µg/mL
FC(F)(F)c1ccc(Oc2ccc(Nc3ncnc4cccnc34)cc2)cc1,luminescence,,,,MIC50,Mycobacterium bovis BCG,>10 µM
Nc1ccc(S(=O)(=O)c2ccc(N)cc2)cc1,,,,DW17,MIC,Mycobacterium avium complex,64 µg/mL
CC[C@H]1OC(=O)[C@H](C)[C@@H](O[C@H]2C[C@@](C)(OC)[C@@H](OC(C)=O)[C@H](C)O2)[C@H](C)[C@@H](O[C@@H]2O[C@H](C)C[C@H](N(C)C)[C@H]2OC(=O)NNC2CCCCC2)C(C)(O)C[C@@H](C)/C(=N\OCCCC2CCCCC2)[C@H](C)[C@@H](O)[C@]1(C)O,,,,20096 (clarithromycin-resistant),MIC,Mycobacterium avium complex,0.39 µg/mL
CCC1CN(c2c(F)cc3c(=O)[nH]c(=O)n(C4CC4)c3c2OC)CCN1,,,,D95Y mutant,MIC99,Mycobacterium smegmatis,200 µg/mL
CCCCCCCCCCCCCCCC(=O)NC(CCC(=O)O)(CCC(=O)O)CCC(=O)O,,,,EO-P-1,MIC,Mycobacterium chelonae,36 µg/mL
CCOc1cccc(CCNc2ncnc3ccsc23)c1,luminescence,,,,MIC50,Mycobacterium bovis BCG,>20 µM
CCc1nc2cc(F)ccn2c1C(=O)NCc1ccc(C2CCN(c3ccc(C)cc3)CC2)cc1F.Cl,fluorescence,0.0054 µM,,,inhibition,Mycobacterium avium,85%
O=C(NCc1ccc(-c2cccnc2)cc1)c1c(Cl)nc2ccccn12,fluorescence,,,,MIC50,Mycobacterium ulcerans,1–10 µg/mL
CCc1nc2cc(Cl)ccn2c1C(=O)NCc1ccc(N2CCN(c3ccc(OC(F)(F)F)cc3)[C@H](C)C2)c(F)c1.Cl,fluorescence,0.62 µM,,,inhibition,Mycobacterium avium,85%
CCN(Cc1ccccc1B(O)O)c1ccccc1,turbidity,,,,MIC,Mycobacterium luteum,31.2 µg/mL
CCCCC(=O)O[C@H]1[C@H](C)[C@@H](O[C@@H]2O[C@H](C)C[C@H](N(C)C)[C@H]2O)C(C)(O)C[C@@H](C)/C(=N\OCCCOc2ccccc2)[C@H](C)[C@@H](O)[C@](C)(O)[C@@H](CC)OC(=O)[C@@H]1C,,,,20096 (clarithromycin-resistant),MIC,Mycobacterium avium complex,6.25 µg/mL
O=c1oc2ccc(Br)cc2c(=S)n1-c1ccccc1,,,21 d,My 235/80,MIC,Mycobacterium kansasii,4 µM
CC[C@H]1OC(=O)[C@H](C)[C@@H](OC(=O)CCc2ccccc2)[C@H](C)[C@@H](O[C@@H]2O[C@H](C)C[C@H](N(C)C)[C@H]2O)C(C)(O)C[C@@H](C)/C(=N\OCCCOc2ccccc2)[C@H](C)[C@@H](O)[C@]1(C)O,,,,20096 (clarithromycin-resistant),MIC,Mycobacterium avium complex,3.13 µg/mL
FC(F)(F)Oc1ccc(C2CCN(c3ccc(CNc4ncnc5sccc45)cc3)CC2)cc1,luminescence,,,,MIC50,Mycobacterium bovis BCG,>20 µM
Cc1ccc2oc(=S)n(-c3ccccc3)c(=S)c2c1,,,21 d,6509/96,MIC,Mycobacterium kansasii,4 µM
Cc1cn2c(C(=O)NCc3ccc(-c4ccc(OCC(F)(F)F)cc4)c(F)c3)c(C)nc2s1,fluorescence,0.031 µM,,,inhibition,Mycobacterium avium,85%
FC(F)(F)c1cccc(-c2ccc(Nc3ncnc4ccccc34)cc2)c1,luminescence,,,,MIC50,Mycobacterium bovis BCG,>50 µM
CCCCCCCCCCC(CCCCCCCCCC)OC(=O)NC(CCC(=O)O)(CCC(=O)O)CCC(=O)O,,,,ATCC 927,MIC,Mycobacterium marinum,108 µg/mL

Again, the opening 4 rows:

CC(=O)c1ccc(B(O)O)cc1 ; method: turbidity ; read-out: MBC ; agent: Mycobacterium luteum ; result: 31.2 µg/mL
Cc1c(N2CC[C@@H](CN)C2)c(F)cc2c(=O)n(N)c(=O)n(C3CC3)c12 ; strain: A91V mutant ; read-out: MIC99 ; agent: Mycobacterium smegmatis ; result: 0.625 µg/mL
CC(C)N=c1cc2n(-c3ccc(Cl)cc3)c3ccccc3nc-2cc1Nc1ccc(Cl)cc1 ; method: broth dilution ; strain: Clinical isolate ; read-out: MIC90 ; agent: Mycobacterium bolletii ; result: 1 µg/mL
CO[C@H]1/C=C/O[C@@]2(C)Oc3c(C)c(O)c4c(=O)c(c5oc6cc(N7CCN(CC(C)C)CC7)cc(=O)c6nc5c4c3=C2O)NC(=O)/C(C)=C\C=C\[C@H](C)[C@H](O)[C@@H](C)[C@@H](O)[C@@H](C)[C@H](OC(C)=O)[C@@H]1C ; strain: ATCC 35840 ; read-out: MBC ; agent: Mycobacterium ulcerans ; result: 0.025 µg/mL